Results on 16 test systems are retold here after the supplement of paper PMC3578754.

Fold change is the IC50 on the isolate divided by the IC50 on a reference virus; 1 = unchanged, higher = more resistant. Changes are given against the subtype B consensus. No active / inactive call. The values were gathered from many studies (numbered anew) with different assays, which the source does not name. Most viruses are clinical isolates; some are laboratory strains or clones with known resistance changes. Isolates with mixed residues are left out; stretches that were not sequenced show no change. Round top values that many isolates share are read here as limits; other very high values and 0.1 may be limits too.

Compound in this experiment: Cc1cn([C@H]2C[C@H](N=[N+]=[N-])[C@@H](CO)O2)c(=O)[nH]c1=O [zidovudine]
Put plainly: fold change of IC50 against reference virus; higher = more resistant. On the procedure:
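Cell-culture drug susceptibility tests of virus bearing the reverse transcriptase of each isolate, gathered from many studies.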
“HIV-1 isolate 889 (reverse transcriptase changes: K102Q S162C M184V K277R, study 1)”: the “fold change of IC50 against reference virus” value (from here on “fold change of IC50”) is 1.
In the case of “HIV-1 isolate 1140 (reverse transcriptase changes: K122E L210W F214L A272P K277R A376T A400T D460N S468T H483Y K512Q S519N, study 103)”, the “fold change of IC50” value was 0.3.
On to “HIV-1 isolate 1179 (reverse transcriptase changes: K122E L210W F214L A272P K277R A376T A400T D460N S468T H483Y K512Q S519N, study 126)”, for which the “fold change of IC50” value worked out at 2.
Take “HIV-1 isolate 1498 (reverse transcriptase changes: M41L K122E F214L T215Y A272P K277R A376T A400T D460N S468T H483Y K512Q S519N, study 143)”: the “fold change of IC50” value was 64.
Under “HIV-1 isolate 1505 (reverse transcriptase changes: M41L I135T E204K T215Y I293V E297K D324P I329L A360V K431N V435A D460N S468P L491S, study 103)” stands 9.2; under “HIV-1 isolate 925 (reverse transcriptase changes: D67N K70R K122E F214L T215Y K219Q A272P K277R M357T A376T A400T N447S D460N S468T S519N, study 103)”, 29.
For the test system “HIV-1 isolate 446 (reverse transcriptase changes: D67N K70R K122E F214L T215F K219Q A272P K277R A376T A400T D460N S468T H483Y K512Q S519N, study 143)”, the “fold change of IC50” value came to 150.
With “HIV-1 isolate 576 (reverse transcriptase changes: M41L D67N K122E F214L T215Y A272P K277R A376T A400T D460N S468T H483Y K512Q S519N, study 143)”, the “fold change of IC50” value stood at 43.
On to “HIV-1 isolate 927 (reverse transcriptase changes: K122E Q161L F214L A272P K277R M357T A376T A400T N447S D460N S468T S519N, study 103)”, for which the “fold change of IC50” value stood at 1.
Next, “HIV-1 isolate 230 (reverse transcriptase changes: D121H K122E I142V D177E G196E T215Y V245K, study 48)”: 190; “HIV-1 isolate 498 (reverse transcriptase changes: M41L K122E F214L T215Y A272P K277R A376T A400T D460N S468T H483Y K512Q S519N, study 103)”: 18; “HIV-1 isolate 1318 (reverse transcriptase changes: K122E F214L T215Y A272P K277R A376T A400T D460N S468T H483Y K512Q S519N, study 143)”: 16.
Under “HIV-1 isolate 553 (reverse transcriptase changes: M41L K122E M184V T200I Q207E L210W R211K T215Y K219E A272P R284K I326V I329V R356K M357T A360T, study 34)” stands 32; under “HIV-1 isolate 851 (reverse transcriptase changes: K122E F214L T215Y A272P K277R A376T A400T D460N S468T H483Y K512Q S519N, study 126)”, 14; under “HIV-1 isolate 1108 (reverse transcriptase changes: D67N K70R I135T S162C R211K T215Y, study 48)”, 125.
For “HIV-1 isolate 1239 (reverse transcriptase changes: R83K K122E I135T T165I D177E R211K T286P I293V E297K A376T T386I A400T, study 103)”, the “fold change of IC50” value came out at 1.
